Where “and” joins values, the source holds several entries; their conditions need not be identical. Identical values can stand only once.
Legend:
[1] = system: human glioblastoma U-87 MG cells; assay: Mouse model of human glioblastoma grafted in nude mouse brain
[2] = system: A549 highly metastatic human lung tumor; assay: Chicken embryo CAM assay, secondary brain cancer, versus paclitaxel
[3] = system: BT 20; assay: Cell viability IC50 assay; settings: read-out: PLTX IC50 at 72 h; BT 20, Breast cancer
[4] = system: BXPC3; assay: Cell viability IC50 assay; settings: read-out: PLTX IC50 at 72 h; BXPC3, Pancreatic cancer
[5] = system: HCT-116; assay: Cell viability IC50 assay; settings: read-out: PLTX IC50 at 72 h; HCT-116, Metastatic colon carcinoma
[6] = system: H1299; assay: Cell viability IC50 assay; settings: read-out: PLTX IC50 at 72 h; H1299, Metastatic Lung NSCLC
[7] = system: Karpas-299; assay: Cell viability IC50 assay; settings: read-out: PLTX IC50 at 72 h; Karpas-299, Lymphoma
[8] = system: A 549; assay: Cell viability IC50 assay; settings: read-out: PLTX IC50 at 72 h; A 549, Lung cancer
[9] = system: PC-3; assay: Cell viability IC50 assay; settings: read-out: PLTX IC50 at 72 h; PC-3, Prostate cancer
[10] = system: U-87 MG; assay: Cell viability IC50 assay; settings: read-out: PLTX IC50 at 72 h, Glioblastoma
[11] = system: DLD-1; assay: Cell viability IC50 assay; settings: read-out: PLTX IC50 at 72 h; DLD-1, Colorectal carcinoma
[12] = system: glioblastoma patient tumors, grown as explants; assay: Explants of human glioblastoma biopsies; settings: 1 pM for 3 days; D3/D0
[13] = Tolerance of PLTX in glioblastoma-bearing mice (clinical signs, CD45, blood, organs)
[14] = system: chicken embryos; assay: In vivo toxicity of palytoxin on chicken embryos

C=C(/C=C/CC(O)C(O)C(O)C/C=C/C=C/C(O)CC1OC(CC(O)C(O)CC2OC(C(O)C(O)CCC(O)/C=C/C(C)C(O)CC3(O)OC(CC(O)CCCCCCCC45CC(C)CC(C)(O4)C(CC(C)CCCCCC(O)C(O)C(O)C(O)C(O)C4OC(CC(O)C(O)/C(C)=C/C(O)CC(C)C(O)C(=O)N/C=C/C(=O)NCCCO)C(O)C(O)C4O)O5)C(O)C(O)C3O)CC(O)C2O)C(O)C(O)C1O)CCC(O)C(O)C(O)C(C)CC1OC(/C=C/C(O)C(O)CC2CC3CC(O2)C(CCC2OC(CN)CC2O)O3)C(O)C(O)C1O (stereo not drawn)
% of animals with tumor formation ([1]; PLTX Intraperitoneal 25 ng/kg): 25%
Animals with tumor formation ([1]; PLTX Intraperitoneal 25 ng/kg): 1 out of 4 and 1/4
% of animals with tumor formation ([1]; PLTX intracerebral 0.5 ng): 80%
Animals with tumor formation ([1]; PLTX intracerebral 0.5 ng): 4 out of 5 and 4/5
apoptosis, caspase-3 positive cells in tumors ([1]; PLTX intracerebral group): 2.5±0.96%
differentiation, GFAP positive cells in tumors ([1]; PLTX intracerebral group): no GFAP Positive cells
proliferation, ki67 positive cells in tumors ([1]; PLTX intracerebral group): 52.5±2.5%
time to tumor development on average ([1]; PLTX intracerebral group): 44 days
proliferation rate, Ki67 positive cells in tumors ([1]; PLTX intraperitoneal group): 17.5±7.5%
Tumor weight ([2]; PLTX 1nM): 19.346 ± 1.143 mg
reduction of brain metastases amount compared to controls ([2]; PLTX 1nM): 78%
more efficient than paclitaxel on brain metastases amount ([2]; PLTX 1 nM versus paclitaxel 25 μM): 43%
Metastasis relative amount, in embryo brain ([2]; PLTX 1 nM, relative to DMSO): 0.222 ± 0.056
Metastasis relative amount, in low CAM ([2]; PLTX 1 nM, relative to DMSO): 0.059 ± 0.043
IC50 [3]: 1 to 10 pM
IC50 [4]: 1 to 10 pM
IC50 [5]: 1 to 10 pM
IC50 [6]: 1 to 10 pM
IC50 [7]: 1 to 10 pM
IC50 [8]: 1 to 10 pM
IC50 [9]: 1 to 10 pM
IC50 [10]: 1 to 10 pM
IC50 [11]: 1 to 10 pM
reduction of explant core size compared to control [12]: 14%
reduction of migration front compared to control [12]: about 60%
mice showing absolutely no clinical signs at the time of euthanasia ([13]; PLTX IP group, Day 57 post injection): 3 out of 4
tolerance of injection into the peritoneum ([13]; PLTX Intraperitoneal 25 ng/kg): well tolerated
CD45 immunostaining in the brain parenchyma around the tumor (inflammation) ([13]; PLTX intracerebral group): No staining
CD45 immunostaining in the brain parenchyma around the tumor (inflammation) ([13]; PLTX intraperitoneal group): No staining
effect on mice blood formulation (red blood cell count, hemoglobin, hematocrit, reticulocyte, platelet and white blood cell counts) ([13]; PLTX intraperitoneal injection): did not alter
abnormalities among the 22 endpoints in the embryos and the CAM ([14]; 2 nM): no abnormalities
abnormalities in the embryos ([14]; 20 nM): no abnormalities
alteration of the CAM at the treatment site ([14]; 20 nM): observed in all eggs
Body abnormalities among live embryos ([14]; PLTX 2 nM): 0/17
Extra-emb abnormalities among live embryos ([14]; PLTX 2 nM): 0/17
Head abnormalities among live embryos ([14]; PLTX 2 nM): 0/17
Limbs abnormalities among live embryos ([14]; PLTX 2 nM): 0/17
Body abnormalities among live embryos ([14]; PLTX 20 nM): 0/13
Extra-emb abnormalities among live embryos ([14]; PLTX 20 nM): 13/13
Head abnormalities among live embryos ([14]; PLTX 20 nM): 0/13
Limbs abnormalities among live embryos ([14]; PLTX 20 nM): 0/13
Body abnormalities among live embryos ([14]; PLTX 200 nM): 0/1
Extra-emb abnormalities among live embryos ([14]; PLTX 200 nM): 1/1
Head abnormalities among live embryos ([14]; PLTX 200 nM): 0/1
Limbs abnormalities among live embryos ([14]; PLTX 200 nM): 0/1
